In general, inhibition refers to the relative decrease from the control value, in per cent.

This assay concerns JEV strain AT31. Kind of assay: microbe, parasite or virus in culture. As to conditions: Japanese encephalitis virus, 24 h, Primary screening of 1034 compounds in the natural extracts library.

Molecules are shown by their SMILES. Counter-ions that a name gives are not always drawn.

In the case of `COc1ccc(-c2cc(=O)c3c(O)c(OC)c(O[C@@H]4O[C@H](CO[C@@H]5O[C@@H](C)[C@H](O)[C@@H](O)[C@H]5O)[C@@H](O)[C@H](O)[C@H]4O)cc3o2)cc1` [Pectolinarin], the inhibition at 50 µM was -5.95%.
`C=C1CC[C@@H]2[C@](C)(CO[C@@H]3O[C@H](CO)[C@@H](O)[C@H](O)[C@H]3O)CCC[C@@]2(C)[C@@H]1CCC1=CCOC1=O` [Neoandrographolide]: the inhibition at 50 µM came to 23.3%.
As to `O=C(O)[C@H]1O[C@@H](Oc2cc3oc(-c4ccccc4)cc(=O)c3c(O)c2O)[C@H](O)[C@@H](O)[C@@H]1O` [Baicalin], the inhibition at 50 µM is -23.8%.
For the compound `CCCCC[C@H](O)CC(=O)CCc1ccc(O)c(OC)c1` [6-Gingerol], the inhibition at 50 µM was -4.11%.
For the compound `CC1(C)CC[C@]2(C(=O)O)CC[C@]3(C)C(=CC[C@@H]4[C@@]5(C)CCC(=O)C(C)(C)[C@@H]5CC[C@]43C)[C@@H]2C1` [Oleanonic acid], the inhibition at 50 µM was found to be 5.3%.
As to `CO[C@H]1C[C@H](O[C@H]2CC[C@@]3(C)[C@H](CC[C@@H]4[C@@H]3CC[C@]3(C)[C@@H](C5=CC(=O)OC5)[C@@H](OC(C)=O)C[C@]43O)C2)O[C@@H](C)[C@@H]1O` [Oleandrin], the inhibition at 50 µM was -16.9%.
In the case of `O=c1c(-c2ccc(O)cc2)coc2c([C@@H]3O[C@H](CO)[C@@H](O)[C@H](O)[C@H]3O)c(O)ccc12` [puerarin] it was -10.6%; in that of `Cc1c(C(=O)NCCO)[n+]([O-])c2ccccc2[n+]1[O-]` [Olaquindox], 16.6%.
Consider `CCCOC(=O)c1cc(O)c(O)c(O)c1` [Propyl gallate], for which the inhibition at 50 µM is -11.4%.
As to `O=c1c(O)c(-c2ccc(O)c(O)c2)oc2cc(O)cc(O)c12` [Quercetin Dihydrate], the inhibition at 50 µM came out at 36%.
The result for `Cc1cc2c(C(C)C)c(O)c(O)c(C=O)c2c(O)c1-c1c(C)cc2c(C(C)C)c(O)c(O)c(C=O)c2c1O` [Gossypol] reads 69.6%.
Consider `C=C1C[C@@]23CC[C@H]4[C@@](C)(CCC[C@@]4(C)C(=O)O[C@@H]4O[C@H](CO)[C@@H](O)[C@H](O)[C@H]4O)[C@@H]2CC[C@]1(O[C@@H]1O[C@H](CO)[C@@H](O)[C@H](O)[C@H]1O)C3` [Rubusoside], for which the inhibition at 50 µM is -9.52%.
Regarding `O=C(/C=C/c1ccccc1)OC[C@H]1O[C@@H](O[C@@H]2OC=C[C@H]3[C@H](O)[C@@H]4O[C@]4(CO)[C@@H]23)[C@H](O)[C@@H](O)[C@@H]1O` [Picroside I], the inhibition at 50 µM was -1.37%.
In the case of `CCCCCCCCCCCCCC(=O)O` [Myristic acid] it was -11%; in that of `C=C[C@](C)(O)CC[C@@H]1[C@@]2(C)CCCC(C)(C)[C@@H]2CC[C@@]1(C)O` [Sclareol], -31.1%; in that of `C=CCc1ccc(O)c(-c2ccc(O)c(CC=C)c2)c1` [honokiol], -0.897%.
In the case of `COc1ccc2c(c1)[nH]c1c(C)nccc12` [Harmine. hydrochloride] it was 22.2%.
With `COC(=O)C1=CO[C@@H](O[C@@H]2O[C@H](CO)[C@@H](O)[C@H](O)[C@H]2O)[C@@H]2[C@H](C)O[C@@H](O)C[C@H]12` [Morroniside], the inhibition at 50 µM is 4.07%.
`CC(C)=CCCC1=CC(=O)c2c(O)ccc(O)c2C1=O` [deoxyshikonin]: the inhibition at 50 µM is -45.9%.
In the case of `O=C(O)CC(O)C(=O)O` (stereo not shown) [Malic acid] it was -11.7%; in that of `CC1=C2C(=O)[C@H]3[C@@H](CC=C4C[C@@H](O)CC[C@@]43C)[C@@H]2CC[C@]12O[C@@H]1C[C@H](C)CN[C@H]1[C@H]2C` [Jervine], -1.91%; in that of `COc1ccc(C[C@@H]2c3cc(Oc4cc(C[C@@H]5c6cc(O)c(OC)cc6CCN5C)ccc4O)c(OC)cc3CCN2C)cc1` [Isoliensinine], 99.4%.
On to `CCC12C=CCN3CC[C@@]4(c5ccc(OC)cc5N(C)[C@H]4[C@@](O)(C(=O)OC)[C@@H]1OC(C)=O)[C@@H]32` (stereo partly shown) [Vindoline], for which the inhibition at 50 µM stood at 13.4%.
For `O=C(O)/C=C\C(=O)O` [Maleic acid], the inhibition at 50 µM was -8.18%.
Turning to `COc1c(O)cc(O)c2c(=O)cc(-c3ccccc3)oc12` [Wogonin], the inhibition at 50 µM turned out to be 11.1%.
For `Oc1ccc(O)cc1` [Hydroquinone], the inhibition at 50 µM was -13.9%.
Take `C[C@@]12C[C@@]3(O)O[C@@H](O1)[C@]1(COC(=O)c4ccc(O)cc4)[C@@H]3C[C@]12O[C@@H]1O[C@H](COC(=O)c2ccccc2)[C@@H](O)[C@H](O)[C@H]1O` [Mudanpioside C]: the inhibition at 50 µM was -17.2%.
Regarding `C[C@@H]1O[C@@H](O[C@H]2[C@H](O[C@H]3CC[C@@]4(C)[C@@H](CC[C@]5(C)[C@@H]4CC=C4[C@@H]6CC(C)(C)CC[C@]6(C(=O)O)CC[C@]45C)[C@]3(C)CO)OC[C@H](O)[C@@H]2O)[C@H](O)[C@H](O)[C@H]1O` [α-hederin], the inhibition at 50 µM stood at 90.1%.
The result for `COc1ccccc1O` [Guaiacol] reads -3.17%; that for `CC1(C)[C@@H](O)CC[C@]2(C)[C@H]3C(=O)C=C4[C@@H]5C[C@@](C)(C(=O)O)CC[C@]5(C)CC[C@@]4(C)[C@]3(C)CC[C@@H]12` [Glycyrrhetinic acid], 25.6%; that for `CC(=O)c1c(C)c([N+](=O)[O-])c(C(C)(C)C)c([N+](=O)[O-])c1C` [Musk ketone], 41.4%.
Turning to `CC1=C[C@]23C(=O)[C@@H](C=C(CO)[C@@H](O)[C@]2(O)[C@H]1O)[C@H]1[C@@H](C[C@H]3C)C1(C)C` [Ingenol], the inhibition at 50 µM was -1.74%.
As to `Oc1ccc2c(c1)OC[C@H]1c3cc4c(cc3O[C@@H]21)OCO4` [Maackiain], the inhibition at 50 µM was determined as 10.5%.
With `O=C(C[C@H]1NCCC[C@@H]1O)Cn1cnc2ccccc2c1=O` [Febrifugine], the inhibition at 50 µM amounted to 54.7%.
For `C/C=C1/[C@H](O[C@@H]2O[C@H](CO)[C@@H](O)[C@H](O)[C@H]2O)OC=C(C(=O)OC)[C@H]1CC(=O)OCCc1ccc(O)c(O)c1` [Oleuropein], the inhibition at 50 µM was -4.16%.
In the case of `COc1ccc2[nH]cc(CCNC(C)=O)c2c1` [Melatonin] it was 18.2%; in that of `O=c1c(-c2ccc(O)cc2)coc2cc(O)cc(O)c12` [Genistein], 27.9%; in that of `COC(=O)[C@@H](Cc1ccc(O)c(O)c1)OC(=O)/C=C/c1ccc(O)c(O)c1` [Methylrosmarinate], 29.7%.
`O=C(CCc1ccc(O)cc1)c1c(O)cc(O)cc1O` [Phloretin]: the inhibition at 50 µM turned out to be 4.16%.
On to `COc1ccc(C=O)c(O)c1` [2-Hydroxy-4-methoxybenzaldehyde], for which the inhibition at 50 µM is -3.84%.
Take `C[C@@H]1O[C@@H](OC[C@H]2O[C@@H](Oc3c(-c4ccc(O)c(O)c4)oc4cc(O)cc(O)c4c3=O)[C@H](O)[C@@H](O)[C@@H]2O)[C@H](O)[C@H](O)[C@H]1O` [Rutin]: the inhibition at 50 µM came to 8.7%.
Take `CCC1=C[C@@H]2CN(C1)Cc1c([nH]c3ccccc13)[C@@](C(=O)OC)(c1cc3c(cc1OC)N(C)[C@H]1[C@@](O)(C(=O)OC)[C@H](OC(C)=O)[C@]4(CC)C=CCN5CC[C@]31[C@@H]54)C2` [VinorelbineTartrate]: the inhibition at 50 µM was -13.8%.
For `C=C(C)[C@@H]1CC[C@]2(C(=O)O)CC[C@]3(C)[C@H](CC[C@@H]4[C@@]5(C)CC[C@H](O)C(C)(C)[C@@H]5CC[C@]43C)[C@@H]12` [Betulinic acid], the inhibition at 50 µM is -139%.
As to `COc1cc(O)ccc1/C=C/C(=O)c1ccc(O)cc1` [Echinatin], the inhibition at 50 µM is 36.8%.
On to `C[C@@H]1CCC=C2C(=O)C[C@H]3OOC(C)(C)[C@H]3[C@]21C` [Nardosinone], for which the inhibition at 50 µM was determined as 16.5%.
For the compound `C=C1C(=O)O[C@@H]2C[C@@]3(C)CCCC(=C)[C@@H]3C[C@H]12` [isoalantolactone], the inhibition at 50 µM came to 98.6%.
`CC(C)=CCC[C@](C)(O)[C@H]1CC[C@]2(C)[C@@H]1[C@H](O)C[C@@H]1[C@@]3(C)CC[C@H](O[C@@H]4O[C@H](CO)[C@@H](O)[C@H](O)[C@H]4O)C(C)(C)[C@@H]3CC[C@]12C` [Ginsenoside Rh2]: the inhibition at 50 µM is 88.7%.
The result for `CC[C@H](C)C(=O)O[C@H]1C[C@@H](C)C=C2C=C[C@H](C)[C@H](CC[C@@H]3C[C@@H](O)CC(=O)O3)[C@H]21` [Lovastatin] reads 60.1%.
As for `COc1cc2c(cc1OC)[C@@]13CCN4CC5=CCO[C@H]6CC(=O)N2[C@H]1[C@H]6[C@H]5C[C@H]43` [Brucine], the inhibition at 50 µM turned out to be 2.81%.
With `O=C(/C=C/c1ccc(O)cc1)CC(=O)/C=C/c1ccc(O)cc1` [Bisdemethoxycurcumin], the inhibition at 50 µM came out at 4.74%.
With `O=C(O)C1=CO[C@@H](O[C@@H]2O[C@H](CO)[C@@H](O)[C@H](O)[C@H]2O)[C@@H]2C(CO)=CC[C@H]12` [Geniposidic acid], the inhibition at 50 µM is -0.401%.
In the case of `CC1=CC(=O)CC(C)(C)[C@@]1(O)/C=C/C(C)=C\C(=O)O` [Abscisic acid], the inhibition at 50 µM was -3.11%.
In the case of `CC(C)=CCC[C@](C)(O[C@@H]1O[C@H](CO)[C@@H](O)[C@H](O)[C@H]1O)[C@H]1CC[C@]2(C)[C@@H]1[C@H](O)C[C@@H]1[C@@]3(C)CC[C@H](O)C(C)(C)[C@@H]3[C@@H](O[C@@H]3O[C@H](CO)[C@@H](O)[C@H](O)[C@H]3O)C[C@]12C` [Ginsenoside Rg1], the inhibition at 50 µM is 7.93%.
As to `COc1ccc2c3c1O[C@H]1C[C@@H](O)C=C[C@@]31CCN(C)C2` [Galanthamine], the inhibition at 50 µM was -6.31%.
With `CC(=O)O[C@@H]1C[C@H](O)[C@@]23CO[C@@H](O)[C@]1(C)[C@@H]2C[C@@H](O)[C@]1(C)[C@@H]3C(=O)[C@H](OC(C)=O)[C@@]2(C)[C@H](c3ccoc3)C[C@H]3O[C@]321` [Toosendanin], the inhibition at 50 µM was determined as 33%.
Consider `C[n+]1cccc(C(=O)[O-])c1` [Trigonelline], for which the inhibition at 50 µM worked out at 3.1%.
Take `CC(C)=CCC[C@]1(C)C=Cc2c(O)c3c(c(CC=C(C)C)c2O1)O[C@]12C(=C[C@@H]4C[C@H]1C(C)(C)O[C@@]2(C/C=C(/C)C(=O)O)C4=O)C3=O` [Gambogic acid]: the inhibition at 50 µM came to 84.8%.
The result for `C[C@@H]1CC[C@]2(C(=O)O[C@@H]3O[C@H](CO)[C@@H](O)[C@H](O)[C@H]3O)CC[C@]3(C)C(=CC[C@@H]4[C@@]5(C)CC[C@H](O)[C@@](C)(CO)[C@@H]5CC[C@]43C)[C@@H]2[C@]1(C)O` [Pedunculoside] reads -6.18%.

(Values after article PMC7038234, “Screening of Natural Extracts for Inhibitors against Japanese Encephalitis Virus Infection” (Antimicrobial Agents and Chemotherapy, 2020).)
